Taken from: PubChem BioAssay AID624099 (ICCB-Longwood, 2012)
Purpose: 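Human genes that papillomavirus E2 requires to repress the HPV18 LCR promoter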 (primary screen). System: human C33A cervical carcinoma cells (HPV-negative) stably expressing BPV1 E2 and an HPV18 LCR luciferase reporter. Knock-down reagent: siRNA pool against human genes, 40 nM. Time to read-out: 72 h. Detection: 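Per-well luciferase luminescence, z-scored on each plate against the plate mean and SD with control wells left out, then averaged across three replicate plates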. Scale: mean z-score and z-score: higher = stronger reporter signal, weaker E2 silencing. Call rule: 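Hit if mean z-score reaches 2 and two or more of three replicate z-scores also reach 2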.
The whole screen tested about 21,000 reagents; shown is a part drawn at random. 497 of all reagents (2.4%) count as active. 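Higher z means weaker E2 silencing; only reporter increases were scored, and knock-downs that hurt cell survival may mask genuine repressor factors.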 Entries without a mark were called inactive.

Depletion of VN1R1 (vomeronasal 1 receptor 1) came out at: mean z-score 1.15; z-score, replicate A = 1.34; z-score, replicate B = 1.17; z-score, replicate C = 0.95.
Depletion of ITLN1 (intelectin 1) resulted in: mean z-score 1.15; z-score, replicate A = 1.35; z-score, replicate B = 1.35; z-score, replicate C = 0.75.
Against C3orf53 (retired record), the entry reads mean z-score -1.29; z-score, replicate A = -1.23; z-score, replicate B = -1.07; z-score, replicate C = -1.58.
ARL15 (ARF like GTPase 15) gave mean z-score -0.18; z-score, replicate A = -0.17; z-score, replicate B = 0; z-score, replicate C = -0.38.
POU5F1 (POU class 5 homeobox 1) scored mean z-score 1.34; z-score, replicate A = 1.37; z-score, replicate B = 1.67; z-score, replicate C = 0.99.
For PCBP4 (poly(rC) binding protein 4), the values are mean z-score -0.08; z-score, replicate A = -0.04; z-score, replicate B = -0.18; z-score, replicate C = -0.01.
Against NSDHL (NAD(P) dependent 3-beta-hydroxysteroid dehydrogenase NSDHL), the values are mean z-score 0.45; z-score, replicate A = 0.26; z-score, replicate B = 0.29; z-score, replicate C = 0.79.
KRT25 (keratin 25) gave mean z-score -1.7; z-score, replicate A = -1.63; z-score, replicate B = -1.68; z-score, replicate C = -1.78.
Against ZBTB11 (zinc finger and BTB domain containing 11), the entry reads mean z-score 0.62; z-score, replicate A = 0.67; z-score, replicate B = 0.84; z-score, replicate C = 0.34.

A few values from above.
POU5F1 (POU class 5 homeobox 1), mean z-score: 1.34
ARL15 (ARF like GTPase 15), z-score, replicate C: -0.38

The results go on.
Depletion of LDLRAD1 (low density lipoprotein receptor class A domain containing 1) gave: mean z-score -1.42; z-score, replicate A = -1.3; z-score, replicate B = -1.21; z-score, replicate C = -1.75.
Against P2RY8 (P2Y receptor family member 8), the entry reads mean z-score -0.49; z-score, replicate A = -0.22; z-score, replicate B = -0.73; z-score, replicate C = -0.51.
With knock-down of SYCP3 (synaptonemal complex protein 3) the results were mean z-score -0.24; z-score, replicate A = -0.54; z-score, replicate B = 0.09; z-score, replicate C = -0.26.
With knock-down of HNRNPA1P10 (heterogeneous nuclear ribonucleoprotein A1 pseudogene 10), the screen gave mean z-score 2.09 (active); z-score, replicate A = 2; z-score, replicate B = 2.33; z-score, replicate C = 1.92.
Against EIF4G2 (eukaryotic translation initiation factor 4 gamma 2), the values are mean z-score -1.7; z-score, replicate A = -1.37; z-score, replicate B = -1.76; z-score, replicate C = -1.95.
